Patent US20100254942A1, “HEPATITIS C ANTIVIRAL COMPOSITIONS AND METHODS” (BIOTRON LIMITED, priority 2007, published 2010)

Tested on: bovine viral diarrhea virus (BVDV) strain NADL
Test: BVDV CPE-inhibition assay in MDBK cells
Format: cell-based
Details: TC50 divided by IC50
Protocol: The antiviral evaluation of selected BIT compounds against BVDV was outsourced to Southern Research Institute (SRI), Fredrick Md. USA. A simple cytoprotection format is used in which the antiviral efficacy of the compounds is assessed by their ability to reduce the cytopathic effect of BVDV infection in Madin-Darby bovine kidney cells (Buckwold et al., 2003)
A virus-induced cytopathogenic effects (CPE)-inhibition assay procedure was employed to evaluate compounds for antiviral activity against bovine viral diarrhea virus (BVDV) strain NADL, in Madin-Darby bovine kidney (MDBK) cells passaged in T-75 flasks (1, 2). Antiviral assays were designed to test six half-log concentrations of each compound in triplicate against the challenge virus. Cell controls (CC) containing medium alone, virus-infected cell controls (VC) containing medium and virus, drug cytotoxicity controls containing medium and each drug concentration, reagent controls containing culture medium only (no cells), and drug colorimetric controls containing drug and medium (no cells) are run simultaneously with the test samples. Human interferon-α 2b was used as a positive control compound. On the day preceding the assay, the cells were trypsinized, pelleted, counted and resuspended at 1×10^4/well in tissue culture medium in 96-well flat bottom tissue culture plates in a volume of 100 μl per well. One day following plating of cells, the wells were washed and the medium was replaced with complete medium (2% serum) containing various concentrations of test compound diluted in medium in a half-log series. A pre-titered aliquot of virus was removed from the freezer (−80° C.) just before each experiment. The virus was diluted into tissue culture medium such that the amount of virus added to each well would give complete cell killing at 6-7 days post-infection. The plates were incubated at 37° C. in a humidified atmosphere containing 5% CO2 until maximum CPE is observed in the untreated virus control cultures (˜day 7) Inhibition of CPE by the compound was determined using Cell Titer 96 (Promega). A colorimetric method for determining the number of viable cells was used. A computer program was utilized to calculate the percent of CPE reduction of the virus-infected wells and the percentage cell viability of uninfected drug control wells. […] A therapeutic (selectivity) index (TI50) for each active compound was determined by dividing the TC50 by the IC50.
Drug cytotoxicity was measured separately in uninfected cells. Eleven BIT compounds were tested in the first experiment in which the compounds were added to the cells just prior to infection and were maintained throughout the entire experiment. Two of them, BIT225 and BIT314 returned sub-micromolar IC50 values (see Table 2 below).

Question: How did the AI turn out when `COc1ccc2cc(C(=O)NC(=N)N)ccc2c1Br` [BIT223, 5-bromo-6-methoxy-2-napthoylguanidine] was run?
Answer: >6.85

Question: With `Cn1cc(-c2cccc3cc(C(=O)NC(=N)N)ccc23)cn1` [BIT225, 5-(1-methylpyrazol-4-yl)2-naphthoylguanidine] as the molecule, how does the AI read?
Answer: 21.7

Question: With `CC(=O)O.Cn1cc(-c2ccc3cc(C(=O)NC(=N)N)ccc3c2)cn1` [BIT314, (6-(1-methylpryazol-4-yl)-2-napthoyl)guanidinium acetate] as the molecule, how does the AI read?
Answer: 54.2

Question: Which AI does the source give for IFN-α here?
Answer: >24.3
